A mixed list of measured activities; the numbers were collected in NIAID ChemDB.

All rows: growth or infection tests; species: Mycobacterium avium

Rows are shuffled and stem from different studies.

SMILES | endpoint | conditions | strain | result
CC[C@H]1OC(=O)[C@H](C)C(=O)[C@H](C)[C@@H](O[C@@H]2O[C@H](C)C[C@H](N(C)C)[C@H]2O)[C@](C)(OC)C[C@@H](C)C(=O)[C@H](C)[C@H]2N(NCCCc3ccnc4ccccc34)C(=O)O[C@]12C | MIC |  | Isolate 1110 | 2.5 µg/mL
Cc1ccc(CSc2nnn(-c3ccc(C)cc3)n2)cc1 | MIC |  | CNCTC MY330/88 | 62.5 µM
CCS/C(N)=N/N=C/c1nc2ccccc2o1 | MIC |  | CNCTC MY66/72 | 63 µM
CCCCCCCOc1ccc(NC(=O)OCC[NH+]2CCCC2)cc1 | MIC |  | MY330/88 | 16 µM
Fc1ccc(/C(Cn2ccnc2)=N\OCc2ccccc2)cc1 | MIC |  | CIP103317 | 4 µg/mL
CCCCOc1cccc(NC(=O)OC(COCC)CN2CCCCC2)c1 | MIC |  | MY330/88 | 62.5 µM
CCOc1c(N2CCC(C(C)(C)N)C2)c(F)cc2c(=O)c(C(=O)O)cn(C3CC3)c12 | MIC |  | SMD | 1 µg/mL
Fc1ccc2oc(=S)n(-c3ccc(Cl)cc3)c(=S)c2c1 | MIC | 14 d | MY330/88 | 16 µM
O=C(Nc1ccc(Br)cc1)c1cc(Cl)ccc1OS(=O)(=O)c1ccccc1 | MIC | 21 d | 330/88 | 32 µM
O=C(Nc1ccccc1)c1ncccc1S | MIC |  | CNCTC MY330/88 | 62.5 µM
COc1ccc(CSc2nnn(-c3ccc(C)cc3)n2)cc1 | MIC |  | CNCTC MY330/88 | 62.5 µM
COc1cc(C(=O)NNC(N)=S)cc(OC)c1OC | MIC |  | ATCC 19421 | >100 µg/mL
CCCCCCS/C(N)=N/N=C/c1ccc2ccccc2n1 | MIC |  | CNCTC D5/93 | 63 µM
CC(C)(C)n1cc(C(=O)O)c(=O)c2cc(F)c(N3CCNCC3)nc21 | MIC |  | SMD | 2 µg/mL
CCCCCCCN(CCCCCCC)C(=O)NC(CCC(=O)O)(CCC(=O)O)CCC(=O)O | MIC |  | VA14 | 27 µg/mL
O=C(N[C@@H](Cc1ccccc1)c1cnc(-c2ccc([N+](=O)[O-])cc2)[nH]1)OCc1ccccc1 | MIC | 14 d | MY330/88 | >62.5 µM
C/C=C/CCC(C)CCC(=O)O | MIC |  |  | 250 µM
O=C(OCc1ccccc1)N1CCC[C@H]1c1cnc(-c2ccc([N+](=O)[O-])cc2)[nH]1 | MIC | 21 d | MY330/88 | >250 µM
CCCCCOc1cccc(NC(=O)OCCN2CCCCC2)c1 | MIC |  | MY330/88 | 32 µM
CCCCCCCOc1ccccc1NC(=O)OCC[NH+]1CCCC1 | MIC |  | MY330/88 | 16 µM
O=C(Nc1ccc(Cl)cc1)c1ccc(Cl)cc1OS(=O)(=O)c1ccccc1 | MIC | 21 d | 330/88 | 8 µM
CCCCCCCCOc1cccc(NC(=O)OCCN(C)C)c1 | MIC |  | MY330/88 | 8 µM
CC(=O)OC[C@H]1O[C@@H](n2cc(/C=C/Br)c(=O)[nH]c2=O)C[C@@H]1OC(C)=O | EC50 |  | ATCC 25291 | >50 µg/mL
COc1ccc(CSc2nnn(-c3ccc(Cl)cc3)n2)cc1 | MIC |  | CNCTC MY330/88 | 62.5 µM
Fc1ccc(/C(Cn2ccnc2)=N/OCc2cccc3ccccc23)cc1 | MIC |  | CIP103317 | 8 µg/mL
CCCCOc1ccc(NC(=O)OCCN(C)C)cc1 | MIC |  | MY330/88 | 125 µM
C[C@@H](NC(=O)OCc1ccccc1)c1cnc(-c2ccc([N+](=O)[O-])cc2)[nH]1 | MIC | 14 d | MY330/88 | >125 µM
CCCCCCOc1cccc(NC(=O)OC(COCC)CN2CCCCC2)c1 | MIC |  | MY330/88 | 125 µM
CCCCCCCC(CCCCCCC)NC(=O)NC(CCC(=O)O)(CCC(=O)O)CCC(=O)O | MIC |  | VA14 | 72 µg/mL
COc1cccc(CSc2nnn(-c3ccc(Cl)cc3)n2)c1 | MIC |  | CNCTC MY330/88 | 62.5 µM
CCCCS/C(N)=N/NC(=O)c1ccccc1 | MIC |  | ATCC 19421 | >100 µg/mL
O=C(NCc1cccc([N+](=O)[O-])c1)c1ncccc1O | MIC |  | CNCTC MY330/88 | 125 µM
NC(=S)c1cc(SC2CCCCC2)ccn1 | MIC |  | 80/72 | 60 µM
CS/C(N)=N/NC(=O)c1ccc([N+](=O)[O-])cc1 | MIC |  | ATCC 19421 | >100 µg/mL
Fc1ccc(/C(Cn2ccnc2)=N\OCc2ccc(-c3ccccc3)cc2)cc1 | MIC |  | CIP103317 | 16 µg/mL
O=c1[nH]c(=O)n([C@H]2CC[C@@H](CO)O2)cc1I | EC50 |  | ATCC 25291 | >50 µg/mL
CC[C@@H](C)[C@H](NC(=O)OCc1ccccc1)c1cnc(-c2ccc([N+](=O)[O-])cc2)[nH]1 | MIC | 21 d | MY330/88 | >125 µM
O=c1[nH]c(=O)n([C@H]2C[C@H](F)[C@@H](CO)O2)cc1Cl | EC50 |  | ATCC 25291 | >50 µg/mL
CS/C(N)=N/NC(=O)c1ccc(Cl)cc1Cl | MIC |  | ATCC 19421 | >100 µg/mL
CCCCCCCCCN(CCCCCCCCC)C(=O)NC(CCC(=O)O)(CCC(=O)O)CCC(=O)O | MIC |  | VA14 | 18 µg/mL
O=c1oc2ccc(F)cc2c(=S)n1-c1ccc(F)cc1 | MIC | 14 d | MY330/88 | 8 µM
CCCCCCCCCCCC(C)C(=O)O | MIC |  |  | 250 µM
N/C(=N\NC(=O)c1ccc(F)cc1)SCc1cccc(Cl)c1 | MIC |  | ATCC 19421 | >100 µg/mL
CCCCOc1cccc(NC(=O)OCCN2CCOCC2)c1 | MIC |  | MY330/88 | 250 µM
CCCCCCCCCCCCCCC(C(=O)O)c1ccccc1 | MIC |  |  | 3.3 µM
CCCOc1cccc(NC(=O)OCCN2CCCCC2)c1 | MIC |  | MY330/88 | 500 µM
CS/C(N)=N/NC(=O)c1ccc(C)cc1 | MIC |  | ATCC 19421 | >100 µg/mL
CCCCCCCCCCCN(CCCCCCCCCCC)C(=O)NC(CCC(=O)O)(CCC(=O)O)CCC(=O)O | MIC |  | VA14 | 72 µg/mL
c1ccc(/C(Cn2ccnc2)=N\OCc2cccc3ccccc23)cc1 | MIC |  | CIP103317 | 8 µg/mL
CCCCCCCCN(CCCCCCCC)C(=O)NC(CCC(=O)O)(CCC(=O)O)CCC(=O)O | MIC |  | VA14 | 13.5 µg/mL
COc1ccc2oc(=S)n(-c3ccc(Br)cc3)c(=S)c2c1 | MIC | 14 d | MY330/88 | 62.5 µM
O=C(Nc1ccc(Br)cc1)c1ccc(Br)cc1OS(=O)(=O)c1ccccc1 | MIC | 21 d | 330/88 | 8 µM
c1ccc(CSc2nnn(-c3ccccc3)n2)cc1 | MIC |  | CNCTC MY330/88 | 125 µM
Cc1ccc2oc(=O)n(-c3ccc(Br)cc3)c(=S)c2c1 | MIC | 14 d | MY330/88 | 4 µM
NC(=S)NNC(=O)c1ccc([N+](=O)[O-])cc1 | MIC |  | ATCC 19421 | >100 µg/mL
CC(C)(C)Sc1ccnc(C(N)=S)c1 | MIC |  | 80/72 | 250 µM
C[C@H](NC(=O)OCc1ccccc1)c1cnc(-c2ccccc2)[nH]1 | MIC | 14 d | MY330/88 | 125 µM
CCCCCCCCCCN(CCCCCCCCCC)C(=O)NC(CCC(=O)O)(CCC(=O)O)CCC(=O)O | MIC |  | VA14 | 9 µg/mL
O=C(NCc1ccc([N+](=O)[O-])cc1)c1ncccc1O | MIC |  | CNCTC MY330/88 | 125 µM
CC(C)C[C@H](NC(=O)OCc1ccccc1)c1cnc(-c2ccccc2)[nH]1 | MIC | 14 d | MY330/88 | >250 µM
CCS/C(N)=N/N=C/c1ccc2ccccc2n1.CCS/C(N)=N/N=C/c1ccc2ccccc2n1 | MIC |  | CNCTC MY80/72 | 63 µM
CCCCCOc1ccc(NC(=O)OC(C)CN2CCCCC2)cc1 | MIC |  | MY330/88 | 62.5 µM
CCCCCCCCCCC(C(=O)O)c1ccccc1 | MIC |  |  | 20 µM
CCCCCCCCSc1ccnc(C(N)=S)c1 | MIC |  | 80/72 | 30 µM
O=C(Nc1ccccc1)c1ccccc1O | MIC |  | CNCTC MY330/88 | 125 µM
O=c1[nH]c(=O)n([C@@H]2O[C@H](CO)[C@@H](O)[C@H]2F)cc1I | EC50 |  | ATCC 25291 | >50 µg/mL
O=C(Nc1cccc(Br)c1)c1ccc(Cl)cc1OS(=O)(=O)c1ccccc1 | MIC | 21 d | 330/88 | 500 µM
Cc1ccc2oc(=O)n(-c3cccc(F)c3)c(=S)c2c1 | MIC | 14 d | MY330/88 | 8 µM
Cc1ccc(-n2nnc(SCc3ccccc3)n2)cc1 | MIC |  | CNCTC MY330/88 | 62.5 µM
CCOc1cccc(NC(=O)OCC[NH+]2CCCC2)c1 | MIC |  | MY330/88 | >1000 µM
COc1ccc2oc(=O)n(-c3ccccc3)c(=S)c2c1 | MIC | 14 d | MY330/88 | 32 µM
CCCCOc1cccc(NC(=O)OCC[NH+]2CCCC2)c1 | MIC |  | MY330/88 | 125 µM
FC(F)(F)c1ccc(-n2c(=S)oc3ccc(Cl)cc3c2=S)cc1 | MIC | 14 d | MY330/88 | 62.5 µM
CCCCCCCCCCSc1ccnc(C(N)=S)c1 | MIC |  | 80/72 | 60 µM
Cc1ccc(NC(=O)c2ccccc2O)cc1 | MIC |  | CNCTC MY330/88 | 31 µM
CCCCCOc1cccc(NC(=O)OCC[NH+]2CCCC2)c1 | MIC |  | MY330/88 | 62.5 µM
CCS/C(N)=N/N=C/c1ccc2ccccc2n1 | MIC |  | CNCTC MY80/72 | >1000 µM
CCCCCCCCCC(CC(=O)O)c1ccccc1 | MIC |  |  | 5 µM
S=c1oc2ccc(Br)cc2c(=S)n1-c1cccc(Cl)c1 | MIC | 21 d | MY330/88 | 32 µM
CCCC(C)C(C/C(C)=C/CC[C@H](C)CCO)C(=O)O | MIC |  |  | 31.25 µM
O=C(Nc1cccc(F)c1)c1ccc(Cl)cc1OS(=O)(=O)c1ccccc1 | MIC | 21 d | 330/88 | 500 µM

For reference, 9 entries again:

SMILES | endpoint | conditions | strain | result
S=c1oc2ccc(Br)cc2c(=S)n1-c1cccc(Cl)c1 | MIC | 21 d | MY330/88 | 32 µM
COc1ccc2oc(=O)n(-c3ccccc3)c(=S)c2c1 | MIC | 14 d | MY330/88 | 32 µM
O=C(N[C@@H](Cc1ccccc1)c1cnc(-c2ccc([N+](=O)[O-])cc2)[nH]1)OCc1ccccc1 | MIC | 14 d | MY330/88 | >62.5 µM
O=C(Nc1ccc(Cl)cc1)c1ccc(Cl)cc1OS(=O)(=O)c1ccccc1 | MIC | 21 d | 330/88 | 8 µM
O=C(Nc1cccc(F)c1)c1ccc(Cl)cc1OS(=O)(=O)c1ccccc1 | MIC | 21 d | 330/88 | 500 µM
C[C@@H](NC(=O)OCc1ccccc1)c1cnc(-c2ccc([N+](=O)[O-])cc2)[nH]1 | MIC | 14 d | MY330/88 | >125 µM
CCCCCCCCCCN(CCCCCCCCCC)C(=O)NC(CCC(=O)O)(CCC(=O)O)CCC(=O)O | MIC |  | VA14 | 9 µg/mL
Fc1ccc(/C(Cn2ccnc2)=N/OCc2cccc3ccccc23)cc1 | MIC |  | CIP103317 | 8 µg/mL
CCCCCCCCCC(CC(=O)O)c1ccccc1 | MIC |  |  | 5 µM

Blank or dashed fields: not listed here. ECn is the concentration giving n% inhibition of infection, replication or growth.